The values that follow come from patent WO2021237516A1, “Sars-cov-2 antibody and application thereof” (dated 2021).

The test deals with T1, SARS-CoV-2 S1 (SARS-CoV-2, UniProt P0DTC2 16-685).
T1 construct: domain: S1
Description: Octet Red BLI, antibody on AHC sensor, 100 nM SARS-CoV-2 S1. (Biolayer interferometry detects binding as a change in optical thickness at a sensor tip.)

B1: Ab2001.14 (antibody, V domains shown)
VH: EVQLVESGGGLVQPGGSLRLSCAASGFTFSNYDMFWVRQAPGKGLEWVSAIGPAGDTYYADSVKGRFTISRDNSKNTLYLQMNSLRAEDTAVYYCTRGGDAPMVGWHFDVWGRGTLVTVSS
VL: not shown
For the molecule B1, the binding result is reported as “binds”.

B2: Ab2001.25 (antibody, V domains shown)
VH: EVQLVESGGGLVQPGGSLRLSCAASGFTFSNYDMFWVRQAPGKGLEWVSAIGPAGDTYYADSVKGRFTISRDNSKNTLYLQMNSLRAEDTAVYYCARGGIAAMVGWHFDLWGRGTLVTVSS
VL: not shown
In the case of B2, the binding result was “binds”.

B3: Ab2001.24 (antibody, V domains shown)
VH: EVQLVESGGGLVQPGGSLRLSCAASGFTFSNYDMFWVRQATGKGLEWVSAIGPAGDTYYADSVKGRFTISRDNAKNSLYLQMNSLRAEDTAVYYCTRGGVAPMAGWHFDLWGRGTLVTVSS
VL: not shown
As to B3, the binding result is “binds”.

B4: Ab2001.02 (antibody, V domains shown)
VH: EVQLVESGGGLVQPGGSLRLSCAASGFTVSSNYMSWVRQAPGKGLEWVSAISGSGGSTYYADSVKGRFTISRDNSKNTLYLQMNSLRAEDTAVYYCAREVSDAFDIWGQGTMVTVSS
VL: DIQMTQSPSSLSASVGDRVTITCRASQGISNSLAWYQQKPGKAPKLLLYAASRLESGVPSRFSGSGSGTDYTLTISSLQPEDFATYYCQQSYSTPSTFGQGTKVEIK
On to B4, for which the binding result was “binds”.

B5: Ab2001.03 (antibody, V domains shown)
VH: EVQLVESGGGLVQPGGSLRLSCAASGFTVSSNYMSWVRQAPGKGLEWVSVIYSGGSTYYADSVKGRFTISRDNSKNTLYLQMNSLRAEDTAVYYCAREVSDAFDIWGQGTMVTVSS
VL: DIQMTQSPSSLSASVGDRVTITCRASQGISNSLAWYQQKPGKAPKLLLYAASRLESGVPSRFSGSGSGTDYTLTISSLQPEDFATYYCQQSYSTPSTFGQGTKVEIK
With B5, the binding result was “binds”.

B6: Ab2001.11 (antibody, V domains shown)
VH: EVQLVESGGGLVQPGGSLRLSCAASGFSFSNSDMHWVRQATGKGLEWVSAIGDSGDTYYSDSVKGRFTISRENAKSSLYLQMNSLRAEDTAVYYCARAANWGWDWYFDLWGRGTLVTVSS
VL: not shown
Consider B6, for which the binding result is recorded as “binds”.

B7: Ab2001.12 (antibody, V domains shown)
VH: EVQLVETGGGLIQPGGSLRLSCAASGFTVSSNYMSWVRQAPGKGLEWVSVIYSGGSTYYADSVKGRFTISRDNSKNTLYLQMNSLRAEDTAVYYCARDAGPYGMDVWGQGTTVTVSS
VL: not shown
As for B7, the binding result is on record as “binds”.
